Values quoted from earlier work, collected in patent US20030195350A1, “Individualization of therapy with antiviral agents” (priority 2001, published 2003).

Details: in vivo; cited from earlier work

For CC(C)c1nc(CN(C)C(=O)N[C@H](C(=O)N[C@@H](Cc2ccccc2)C[C@H](O)[C@H](Cc2ccccc2)NC(=O)OCc2cncs2)C(C)C)cs1 (relative stereo) [ritonavir, 10-Hydroxy-2-methyl-5-(1-methylethyl)-1-[2-(1-methylethyl)-4-thiazolyl]-3,6-dioxo-8,11-bis(phenylmethyl)-2,4,7,12-tetraazatridecan-13-oic acid, 5-thiazolylmethyl ester, [5S-(5R*,8R*,10R*,11R*)]], the “Adverse event: Diarrhea” value is listed as 23.3%.
